Patent publication US8980848B2, “Flavonoid dimers and their use” (The Hong Kong Polytechnic University, priority 2010, dated 2015)

Key:
Lm50122 promastigotes = experiment: In vitro anti-promastigote activity, Lm50122; assay type: cell-based, Leishmania major; settings: IC50 against PEM/IC50 against promastigotes
Procedure: (§1) Cell Lines and Cell Culture. Promastigotes of Leishmania donovani (wild type LdAG83, pentamidine-resistant LdAG83-PentR50, and SSG-resistant Ld39) and Leishmania major [MHOM/IL/67/JERICHO II (Lm50122), from ATCC] were used in this study.
(§2) In Vitro Anti-Promastigote Activity. The viability of promastigotes was determined by the Cell Titer 96° Aqueous Assay (Promega) that employs a tetrazolium compound (MTS, 2-(4,5-Dimethylthiazol-2-yl-)-5-[3-(carboxymethoxy)phenyl]-2-(4-sulfophenyl)-2H-tetrazolium) and electron coupling reagent, phenazine methosulfate (PMS).^7 Promastigotes were seeded into 96-well flat bottom microtiter plate at 1×10^5 cells per well in a final volume of 100 μL medium and incubated with a series concentration of synthetic flavonoid dimers or known antileishmanials. The parasites were incubated at 27° C. for 72 hrs. Fresh solution of 2 mg/mL MTS and 0.92 mg/mL PMS were prepared in a ratio of 20:1 (MTS:PMS). After 72 hrs incubation, 10 μL of MTS:PMS mixture was added into each well of microtiter plate. The plate was then incubated at 27° C. for 4 hrs for color development. After 4 hrs incubation, the OD values were determined at 490 nm using automatic microtiter plate reader (Bio-Rad).

[1] = tested on: LdAG83 promastigotes (wild type); experiment: In vitro anti-promastigote activity, LdAG83; assay type: cell-based, Leishmania donovani; settings: IC50 against PEM/IC50 against promastigotes
Procedure: as §1, §2

[2] = tested on: Ld39 promastigotes (SSG-resistant); experiment: In vitro anti-promastigote activity, Ld39; assay type: cell-based, Leishmania donovani; settings: IC50 against PEM/IC50 against promastigotes
Procedure: as §1, §2

Ld39 amastigotes = experiment: In vitro anti-amastigote activity, Ld39 amastigotes in mouse PEM
[3] = tested on: LdAG83PentR50 promastigotes (pentamidine-resistant); assay type: cell-based, Leishmania donovani; settings: IC50 against PEM/IC50 against promastigotes
Procedure: as §1
No pentamidine or sodium stibogluconate was added to the L. donovani wild type (LdAG83) and L. major wild type (Lm50122). The mouse macrophage cell line, Raw264.7, was used for the determination of the relative toxicity of the compounds of the invention. […] They were maintained at 37° C. in a humidified atmosphere with 5% CO2. The cells were split constantly after a confluent monolayer has been formed. To split cells, the plate was washed briefly with PBS, treated with 0.05% trypsin-EDTA and harvested by centrifugation.
as §2

SMILES	Therapeutic index relative to PEM, Lm50122 (Lm50122 promastigotes)	Therapeutic index relative to PEM, LdAG83 [1]	Therapeutic index relative to PEM, Ld39 [2]	Therapeutic index relative to PEM (Ld39 amastigotes)	Therapeutic index relative to PEM, LdAG83PentR50 [3]
C[C@@H]1[C@H](O)[C@@H](C)/C=C/C=C/C=C/C=C/C=C/C=C/C=C/[C@H](O[C@@H]2O[C@H](C)[C@@H](O)[C@H](N)[C@@H]2O)C[C@@H]2O[C@](O)(C[C@@H](O)C[C@@H](O)[C@H](O)CC[C@@H](O)C[C@@H](O)CC(=O)O[C@H]1C)C[C@H](O)[C@H]2C(=O)O [Amphotericin B, amphotericin B]	21.8	82.2	77.9	119.4	145.1
O=c1c(O)c(-c2ccc(O)c(O)c2)oc2cc(O)cc(O)c12 [Quercetin, quercetin]	>1.0	>1.0	>1.0	>16.7	>1.4
NC[C@@H]1O[C@H](O[C@H]2[C@@H](O)[C@H](O[C@@H]3[C@@H](O)[C@H](N)C[C@H](N)[C@H]3O[C@H]3O[C@H](CO)[C@@H](O)[C@H](O)[C@H]3N)O[C@@H]2CO)[C@H](N)[C@@H](O)[C@@H]1O [Paromomycin, paromomycin]	>1.1	>1.6	>4.1	>2.4	>1.2
O=c1cc(-c2ccc(O)c(O)c2)oc2cc(O)cc(O)c12 [Luteolin, luteolin]	0.8	0.7	0.9	10.1	0.9
N=C(N)c1ccc(OCCCCCOc2ccc(C(=N)N)cc2)cc1 [Pentamidine]	3.9	1.9	5.7	>1.0	0.4
O.O.O.O.O.O.O.O.O.O=C([O-])[C@@H]1[O][Sb]2([O-])([O][Sb]34([OH])[O][C@H]([C@H](O)CO)[C@H]([O]3)[C@H](C(=O)[O-])[O]4)[O][C@H]([C@H](O)CO)[C@@H]1[O]2.[Na+].[Na+].[Na+] [Sodium stibogluconate, sodium stibogluconate, reference compound]				>16.3	
O=c1cc(-c2ccc(OCCOCCN(CCOCCOc3ccc(-c4cc(=O)c5ccccc5o4)cc3)Cc3ccncc3)cc2)oc2ccccc12 [Compound 21, 1,13-Bis[4′-(4H-chromen-4-on-2-yl)phenyl]-N-(4-pyridylmethyl)-1,4,10,13-tetraoxa-7-azamidecane]				>139.7	>676.9
